The values below come from patent US20170313764A1 (ACADEMISCH MEDISCH CENTRUM, published 2017).

The target of the test is soluble E2-his6-sortase tag from HCV isolate H77 (genotype 1a) (Hepatitis C virus genotype 1a, strain …, UniProt P27958 384-717).

B1: AT15-009 (antibody, V domains shown)
VH: QVLLVQSGAEVKKPGSSVKVSCKASGGTFSTYAISWLRQAPGQGPEWMGGIVPMFGITNYAQHFQGRITITADKSTSTAYMELSSLGSEDTAVYFCARDLRSGGTFFSRGFDLWGPGTKVTVSS
VL: EIVLTQSPGTLSLSPGERATLSCRASQSVSSSFLTWYQQKPGQAPRLLIFDASTRATGVPDRFSGSGSGTDFTLTISRLEPEDFGVYYCQQFDSSPTFGGGTKVEIK
The term Kd denotes a measure of binding affinity in units of concentration. B1 had a Kd of 0.242 nM.
